These are literature values, as cited in patent US5547674A, “Pharmaceutical preparations derived from European mistletoe” (priority 1995, dated 1996).

This series relates to AIDS patients. Conditions: human, in vivo; cited from earlier work.

Take “IL-2: Purified IL-2 which stimulates the production of CD4 cells”: the “CD4 count of AIDS patients” value is “improve CD4 count of AIDS patients” and the toxic side effects entry is on record as “serious side effects which have symptoms similar to acute influenza”.
